Results of unrelated studies side by side (data: NIAID ChemDB).

Shared fields: growth or infection tests; organism: Cryptococcus neoformans; endpoint: MFC

Rows are shuffled and stem from different studies. Blank or dashed fields: not listed here. a–b is a range or a potency band.

structure	strain	read by	result
N=C(N)c1ccc2nc(-c3cccc(-c4nc5ccc(C(=N)N)cc5[nH]4)n3)[nH]c2c1	H99		>100 µg/mL
CCN1CCC(O)(/C=C/c2ccc(Cl)cc2)C(C(=O)/C=C/c2ccc(Cl)cc2)C1	15 strains		2 µg/mL
Fc1ccccc1CC(Cc1ccc(-c2ccccc2)cc1)n1ccnc1			33 µM
Cc1cc(-c2nn(CCO)c(C)c2N=O)no1			22 µM
COc1ccccc1CC(Cc1ccc(-c2ccccc2)cc1)n1ccnc1			33 µM
CCCCCCCCCCCCCCCCOP(=O)([O-])OCC[N+](C)(C)C			8 µg/mL
c1ccc(CN(Cc2ccc(-c3ccccc3)cc2)n2ccnc2)cc1			200 µM
C[C@@H](n1cnc2cc(Cl)ccc2c1=O)[C@](O)(Cn1cncn1)c1ccc(F)cc1F	Isolate 124.96		20 µg/mL
COc1c(O)c2c(=O)cc(OC)c3c4c(OC)cc(=O)c5c(O)c(OC)c6c(c(c1CC(C)(O)C6C(C)=O)c23)c54			>100 µg/mL
COC1CC2CCC(C)C(O)(O2)C(=O)C(=O)N2CCCCC2C(=O)OC(C(C)CC2CCC(O)C(OC)C2)CC(=O)C(C)/C=C(\C)C(O)C(OC)C(=O)C(C)C[C@](C)(N(O)C(=O)NN2CCCCC2)/C=C/C=C/C=C/1C	FRR1		>100 µg/mL
COc1ccccc1CN(Cc1ccc(-c2ccccc2)cc1)n1ccnc1			5.5 µM
C[C@H]1[C@H](O)[C@@H](C)/C=C/C=C/C=C/C=C/C=C/C=C/C=C/[C@H](O[C@@H]2O[C@H](C)[C@@H](O)[C@H](N)[C@@H]2O)C[C@@H]2O[C@](O)(C[C@@H](O)C[C@@H](O)CC[C@H](O)[C@@H](O)C[C@@H](O)CC(=O)O[C@H]1C)C[C@H](O)[C@H]2C(=O)O	MTCC 4406	visual reading	1 µg/mL
C[C@@H](n1ncn(-c2ccc(OCC(F)(F)C(F)F)cc2)c1=O)[C@](O)(Cn1cncn1)c1ccc(F)cc1F	DUMC 119.95		0.5 µg/mL
NC(=S)NC1N=C(c2ccccc2)SN1			32 µg/mL
Clc1ccc(CN(Cc2ccc(-c3ccccc3)cc2)n2ccnc2)c(Cl)c1			7.4 µM
CN[C@H]1CC[C@@H](c2ccc(Cl)c(Cl)c2)c2ccccc21	92BC2-45	broth dilution	10 µg/mL
C[C@@H]1CCC2(OC1)OC1CC3C4C[C@H](O)[C@H]5C[C@@H](O)CC[C@]5(C)C4CC(=O)[C@]3(C)C1[C@@H]2C	ATCC 90113		10 µg/mL
Cc1cc(-c2c(N=O)c(C)nn2CCO)no1			0.8 µM
Cc1ccccc1CC(Cc1ccc(-c2ccccc2)cc1)n1ccnc1			33 µM
N=C(N)c1ccc(OCCCC2CCN(CCCOc3ccc(C(=N)N)cc3)CC2)cc1	ATCC90112		0.125 µg/mL
Cn1nc(Cc2ccc(Cl)cc2)c2ccccc2c1=O	Clinical isolate (IM 983040)	broth dilution	7.8 µg/mL
COc1cc(NC(C)CCCN)c2nc(C(C)(C)C)cc(C)c2c1Oc1cccc(C(F)(F)F)c1			5 µg/mL
N=C(N)c1ccc(OCCCC(O)COc2ccc(C(=N)N)cc2)cc1	119.95		1.56 µg/mL
C[C@H]1[C@H](O)[C@@H](C)/C=C/C=C/C=C/C=C/C=C/C=C/C=C/[C@H](O[C@@H]2O[C@H](C)[C@@H](O)[C@H](N)[C@@H]2O)C[C@@H]2O[C@](O)(C[C@@H](O)C[C@@H](O)CC[C@H](O)[C@@H](O)C[C@@H](O)CC(=O)O[C@H]1C)C[C@H](O)[C@H]2C(=O)O	ATCC 90113		2.5 µg/mL
CC(C)N=C(N)c1ccc2nc(-c3ccc4c(c3)Cc3cc(-c5nc6ccc(C(N)=NC(C)C)cc6[nH]5)ccc3-4)[nH]c2c1	H99		0.78 µg/mL
Cc1nn(-c2ccccc2)c2nsc(N)c12			8–16 µg/mL
CCCCCCCCOc1ccc(C(=O)NC2C[C@@H](O)[C@@H](O)NC(=O)C3[C@@H](O)[C@@H](C)CN3C(=O)C(C(C)O)NC(=O)C([C@H](O)[C@@H](O)c3ccc(O)cc3)NC(=O)C3C[C@@H](O)CN3C(=O)C(C(C)O)NC2=O)cc1	12 strains		>40 µg/mL
Cc1ccc(CC(Cc2ccc(-c3ccccc3)cc2)n2ccnc2)cc1			33 µM
CCCCn1nc(C)c(N=O)c1-c1cc(C)on1			2.4 µM
C[C@H]1[C@H](O)[C@@H](C)/C=C/C=C/C=C/C=C/C=C/C=C/C=C/[C@H](O[C@@H]2O[C@H](C)[C@@H](O)[C@H](N)[C@@H]2O)C[C@@H]2O[C@](O)(C[C@@H](O)C[C@@H](O)CC[C@H](O)[C@@H](O)C[C@@H](O)CC(=O)O[C@H]1C)C[C@H](O)[C@H]2C(=O)O	MTCC 4406	broth dilution	1 µg/mL
CC1=C2[C@@H](OC(=O)/C=C/c3ccccc3)[C@H](C(C)C)CC[C@]2(C)[C@@H](O)CC1=O	CECT1075		8 µg/mL
N=C(N)c1ccc(OCCCCCCOc2ccc(C(=N)N)cc2)cc1	H99		12.5 µg/mL
NCCNC(=O)C1=Nc2ccc(NC(=O)C3=Nc4ccc(C(=O)Nc5ccc6[nH]c(C(=O)NCCN)cc6c5)cc4C3)cc2C1	Serotype B		8 µg/mL
C[C@H]1[C@H](O)[C@@H](C)/C=C/C=C/C=C/C=C/C=C/C=C/C=C/[C@H](O[C@@H]2O[C@H](C)[C@@H](O)[C@H](N)[C@@H]2O)C[C@@H]2O[C@](O)(C[C@@H](O)C[C@@H](O)CC[C@H](O)[C@@H](O)C[C@@H](O)CC(=O)O[C@H]1C)C[C@H](O)[C@H]2C(=O)O		broth dilution	12.5 µg/mL
N=C(N)c1ccc(NCCCNc2ccc(C(=N)N)cc2[N+](=O)[O-])c([N+](=O)[O-])c1	119.95		6.25 µg/mL
COC1CC2CCC(C)C(O)(O2)C(O)C(O)N2CCCCC2C(=O)OC(C(C)CC2CCC(O)C(OC)C2)CC(=O)C(C)/C=C(\C)C(O)C(OC)C(=O)C(C)CC(C)/C=C/C=C/C=C/1C	TOR1-1		>100 µg/mL

3 of the rows above, restated:

structure	strain	read by	result
COc1cc(NC(C)CCCN)c2nc(C(C)(C)C)cc(C)c2c1Oc1cccc(C(F)(F)F)c1			5 µg/mL
C[C@H]1[C@H](O)[C@@H](C)/C=C/C=C/C=C/C=C/C=C/C=C/C=C/[C@H](O[C@@H]2O[C@H](C)[C@@H](O)[C@H](N)[C@@H]2O)C[C@@H]2O[C@](O)(C[C@@H](O)C[C@@H](O)CC[C@H](O)[C@@H](O)C[C@@H](O)CC(=O)O[C@H]1C)C[C@H](O)[C@H]2C(=O)O		broth dilution	12.5 µg/mL
Cc1ccccc1CC(Cc1ccc(-c2ccccc2)cc1)n1ccnc1			33 µM